Anti-infective test results gathered from many reports (values: NIAID ChemDB through PubChem).

Common to all: growth or infection tests; organism: Mycobacterium tuberculosis

MIC50, MIC90 and the like: level of inhibition, or share of isolates inhibited. MIC bound: limit read from a one-dose screen. ECn: concentration that inhibits the pathogen or its effect by n%. Lines come from different laboratories, so protocols vary. Blank or dashed fields: not listed here. Percent inhibition refers to the dose given; in toxicity tests it is the harm to the cells.

smiles	cell line	tested at	read-out	conditions	strain	changes	method	value
NNC(=O)CNc1cccc(I)c1			MIC bound		H37Rv		BACTEC	>12.5 µg/mL
CC1(C)C[C@H]2[C@@H](C1)[C@@H](C(CCO)NCCCCCCCCNC(CCO)[C@H]1O[C@@H]3CC(C)(C)C[C@@H]3[C@H]3CC(C)(C)C[C@H]31)O[C@@H]1CC(C)(C)C[C@H]21			MIC		H37Rv			6.25 µg/mL
CC1(C)CC(=O)c2c(oc3cc4c5c(oc4cc23)CC(C)(C)CC5=O)C1		12.5 µg/mL	inhibition		H37Rv		BACTEC	4%
CCOC(=O)c1cnccn1			MIC90	pH 6.6		Pyrazinamide-resistant	resazurin	>657 µM
C=C(C)[C@@H]1CC[C@]2(C(=O)O)CC[C@]3(C)C(CCC4[C@@]5(C)CC[C@H](OC(=O)/C=C/c6ccc(OC(C)=O)c(OC)c6)C(C)(C)C5CC[C@]43C)C12			MIC		H37Ra		resazurin	200 µg/mL
CC1(C)C[C@H]2[C@@H](C1)[C@@H](C(CCO)NCCCCNC(CCO)[C@H]1O[C@@H]3CC(C)(C)C[C@@H]3[C@H]3CC(C)(C)C[C@H]31)O[C@@H]1CC(C)(C)C[C@H]21			MIC		H37Rv			>25 µg/mL
CC1(C)CC[C@]2(C(=O)O)CC[C@]3(C)C(=CCC4[C@@]5(C)CC[C@H](OC(=O)/C=C/c6ccc(O)cc6)C(C)(C)C5CC[C@]43C)C2C1			MIC		H37Ra		resazurin	6.25 µg/mL
CO[C@H]1/C=C/O[C@@]2(C)Oc3c(C)c(O)c4c(O)c(c(/C=N/N5CCN(C)CC5)c(O)c4c3C2=O)NC(=O)/C(C)=C\C=C\[C@H](C)[C@H](O)[C@@H](C)[C@@H](O)[C@@H](C)[C@H](OC(C)=O)[C@@H]1C			MIC90		H37Rv		resazurin	0.06 µM
CCCCCCCCO[C@H]1O[C@H](CO[C@H]2O[C@H](CO)[C@@H](O)[C@@H]2O)[C@@H](O)[C@@H]1O			MIC		H37Ra			>128 µg/mL
CCCCN(CCCC)CCNc1ccc(C)c2sc3cc(Cl)ccc3c(=O)c12			MIC bound		H37Rv		BACTEC	≤12.5 µg/mL
CC(=O)Oc1ccc(/C=C/C(=O)O[C@H]2CC[C@@]3(C)C(CC[C@]4(C)C3CC=C3C5CC(C)(C)CC[C@]5(C(=O)O)CC[C@]34C)C2(C)C)cc1			MIC		H37Ra		resazurin	12.5 µg/mL
CC(=O)O[C@@H]1OC[C@@]23[C@H]4C(=O)[C@H](OC(C)=O)[C@@]5(C)[C@H](c6ccoc6)C[C@H]6O[C@]65[C@]4(C)[C@H](O)C[C@H]2[C@]1(C)[C@H](OC(C)=O)C[C@@H]3O			MIC bound		H37Rv		BACTEC	>12.5 µg/mL
C[C@@H]1CC[C@]2(C(=O)O)CC[C@]3(C)C(=CCC4[C@@]5(C)CC[C@H](OC(=O)/C=C/c6ccccc6)C(C)(C)C5CC[C@]43C)C2[C@H]1C			MIC		H37Ra		resazurin	>200 µg/mL
O=C1c2cc(Cl)ccc2OP(=O)(c2ccccc2)N1c1ccc(C(F)(F)F)cc1			MIC	14 d	Praha 1			1 µM
CC1(C)CC[C@]2(C(=O)O)CC[C@]3(C)C(=CCC4[C@@]5(C)CC[C@H](OC(=O)/C=C/c6ccccc6)C(C)(C)C5CC[C@]43C)C2C1			MIC		H37Ra		resazurin	50 µg/mL
O=C(OCCCl)c1cnccn1			MIC90		H37Rv		resazurin	72.1 µM
C=CCNC(=S)Nc1ccc(C(C)=O)cc1			MIC		H37Rv			10 µg/mL
NNc1ccc2cccc(O)c2n1	VERO		MIC		H37Rv			1.6 µg/mL
CO/N=C(/C(=O)N[C@@H]1C(=O)N2C(C(=O)[O-])=C(C[N+]3(C)CCCC3)CS[C@H]12)c1csc(N)n1		8 µg/mL	inhibition		13 strains			0%
CNC(=S)Nc1ccc(S(C)(=O)=O)cc1			MIC		H37Rv			>10 µg/mL
Cc1cc2nc3ccc(O)cc3[n+](C)c2cc1N.[OH-]			MIC bound		H37Rv		BACTEC	>12.5 µg/mL
CC(C)=CC(=O)O[C@H]1C(=O)O[C@@H]2C[C@H]3[C@H](C)C(=O)C(O[C@@H]4O[C@H](CO)[C@@H](O)[C@H](O)[C@H]4O)=C[C@]3(C)[C@H]3[C@@H](O)[C@H](O)C4(C(=O)O)OC[C@]32[C@@H]14		12.5 µg/mL	inhibition		H37Rv			7%
CNC(=S)Nc1ccc(C(C)=O)cc1			MIC		H37Rv			5 µg/mL
CC(C)OC(=O)c1cc(NC(=S)OC(C)C)ccc1Cl			MIC bound		H37Rv		BACTEC	>12.5 µg/mL
CC[C@@H](C)[C@H](O)[C@H](C)[C@@H](C/C=C/C=C/C(N)=O)OC(=O)/C=C/c1ccccc1			MIC					50 µg/mL
Cl.Cl.Cl.FC(F)(F)c1ccc2c(c1)N(CCCN1CCN(CCN3CCOCC3)CC1)c1ccccc1S2			MIC bound		H37Rv		BACTEC	≤12.5 µg/mL
CCCCCCCCO[C@@H]1O[C@@H](C(CO[C@@H]2O[C@@H](C(O)CO)[C@H](O)[C@H]2O)OC)[C@H](OC)[C@H]1OC			MIC		H37Ra			>128 µg/mL
O=C1c2cc(Br)ccc2OP(=O)(c2ccccc2)N1c1ccc(C(F)(F)F)cc1			MIC	14 d	Praha 4			1 µM
NNC(=O)Cc1ccc(Cl)c2ccccc12		12.5 µg/mL	inhibition		H37Rv		BACTEC	11%
CCCCCCCCO[C@@H]1O[C@H]([C@@H](COCc2ccccc2)O[C@H]2O[C@H](CO)[C@@H](O)[C@@H]2O)[C@H](OCc2ccccc2)[C@H]1OCc1ccccc1			MIC		H37Ra			32 µg/mL
O=C(O)c1c[nH]c2c(ccc3[nH]cc(C(=O)O)c(=O)c32)c1=O			MIC bound		H37Rv		BACTEC	>12.5 µg/mL
O=C(Nc1ccc(Cl)cc1)c1cc(Cl)ccc1OP(=O)(OCc1ccccc1)OCc1ccccc1			MIC	14 d	My 331/88			16 µM
COC1=CC(=O)c2c(O)c3c(c(O)c2C1=O)C=C(C)OC3O			MIC		H37Rv		BACTEC	≥12.5 µg/mL
COC(=O)[C@]12OC[C@@]34[C@@H](CC5=C(C)C(=O)C(O)=C[C@]5(C)[C@H]3[C@@H](O)[C@@H]1O)OC(=O)[C@H](OC(=O)c1ccccc1)[C@@H]24		12.5 µg/mL	inhibition		H37Rv			8%
CCC(C(=O)OC)C1CCN(C)C(=O)C12CO2		6.25 µg/mL	inhibition		H37Rv		resazurin	37%
CC[C@H]1OC(=O)[C@H](C)C(=O)[C@H](C)[C@@H](O[C@@H]2O[C@H](C)C[C@H](N(C)C)[C@H]2O)[C@](C)(OC)C[C@@H](C)C(=O)[C@H](C)[C@H]2N(CCCCn3cnc(-c4cccnc4)c3)C(=O)O[C@]12C			MIC		Isolate 900216			>40 µg/mL
COc1ccc2c(c1)NC(c1ccc(C(N)=S)cc1)N2			MIC bound		H37Rv		resazurin	>6.25 µg/mL
O=C(Nc1ccc(C(F)(F)F)cc1)c1cc(Cl)ccc1OP(=O)(c1ccccc1)c1ccccc1			MIC	21 d	Praha 4			1 µM
Nc1c(C(=O)Nc2ccccc2)[n+]([O-])c2ccccc2[n+]1[O-]			MIC		INH-r			12.5 µg/mL
CC(=O)Oc1ccc(/C=C/C(=O)O[C@H]2CC[C@@]3(C)C(CC[C@]4(C)C3CC=C3C5[C@@H](C)[C@H](C)CC[C@]5(C(=O)O)CC[C@]34C)C2(C)C)cc1OC(C)=O			MIC		H37Ra		resazurin	100 µg/mL
O=C(Nc1ccc(Cl)cc1)c1cc(Cl)ccc1OP(=O)(Oc1ccccc1)Oc1ccccc1			MIC	7 d	My 331/88			4 µM
CC1(C)C[C@H]2[C@@H](C1)[C@@H](C(CCO)NCCCCCCCCCCNC(CCO)[C@H]1O[C@@H]3CC(C)(C)C[C@@H]3[C@H]3CC(C)(C)C[C@H]31)O[C@@H]1CC(C)(C)C[C@H]21			MIC		H37Rv			>25 µg/mL
CC(C)(C)C1(O)C=C(O)C(=O)N1c1cccnc1		6.25 µg/mL	inhibition		H37Rv		resazurin	2%
NC(=S)c1ccc(N)cc1			MIC					425 µM
NCC[C@H](O)C(=O)N[C@@H]1C[C@H](N)[C@@H](O[C@H]2O[C@H](CN)[C@@H](O)[C@H](O)[C@H]2O)[C@H](O)[C@H]1O[C@H]1O[C@H](CO)[C@@H](O)[C@H](N)[C@H]1O			MIC		Isolate CKN64-302 (rrs A1401G mutation)			>64 µg/mL
O=C(CSc1nnc(-c2ccc3ncccc3c2)o1)Nc1ccccc1			MIC		H37Rv		agar	500 µg/mL
COC1=C[C@@H](C)[C@@H]2C[C@H]3OC(O)C[C@H]4C(C)=C(OC)C(=O)[C@H]([C@@]2(C)C1=O)[C@@]34C			EC50		H37Rv			>12.5 µg/mL
CC1(C)CC[C@]2(C(=O)O)CC[C@]3(C)C(=CCC4[C@@]5(C)CC[C@H](OC(=O)/C=C/c6ccc(O)c(O)c6)C(C)(C)C5CC[C@]43C)C2C1			MIC		H37Ra		resazurin	200 µg/mL
CCCCNc1ccc(C(N)=S)cc1			MIC					350 µM
CC(=O)O[C@@H]1[C@H](C)[C@@H]2CC(=O)O[C@@H]3C[C@H]4[C@H](C)C[C@H](O)C(=O)[C@]4(C)[C@@H]([C@@H]1O)[C@@]32C			EC50		H37Rv			>12.5 µg/mL
Cc1ccc2nc(NC(=O)CSc3nnc(-c4ccc5ncccc5c4)o3)sc2c1			MIC		H37Rv		agar	200 µg/mL
NNC(=O)C(=O)N=Cc1ccc([N+](=O)[O-])o1		12.5 µg/mL	inhibition		H37Rv		BACTEC	100%
CO[C@H]1/C=C/O[C@@]2(C)Oc3c(C)c(O)c4c(O)c(c(/C=N/N5CCN(C)CC5)c(O)c4c3C2=O)NC(=O)/C(C)=C\C=C\[C@H](C)[C@H](O)[C@@H](C)[C@@H](O)[C@@H](C)[C@H](OC(C)=O)[C@@H]1C			MIC99			522Leu		>640 µg/mL
N#Cc1ccc2nc(NC(=O)CSc3nnc(-c4ccc5ncccc5c4)o3)sc2c1			MIC		H37Rv		agar	200 µg/mL
CC1(C)C[C@H]2[C@@H](C1)[C@@H]([C@H](CCO)NCCCCCCCCN[C@@H](CCO)[C@H]1O[C@@H]3CC(C)(C)C[C@@H]3[C@H]3CC(C)(C)C[C@H]31)O[C@@H]1CC(C)(C)C[C@H]21			MIC		H37Rv			>25 µg/mL
C=C(C)[C@@H]1CC[C@]2(C(=O)O)CC[C@]3(C)[C@H](CC[C@@H]4[C@@]5(C)CC[C@H](O)C(C)(C)[C@@H]5CC[C@]43C)[C@@H]12			MIC		H37Ra		resazurin	50 µg/mL
CC(=O)Nc1ccc2nc(NC(=O)CSc3nnc(-c4ccc5ncccc5c4)o3)sc2c1			MIC		H37Rv		agar	62.5 µg/mL
CC1=C2C3B(OCCOC3C=C1)O[C@@H]2CN			MIC		H37Rv		resazurin / fluorescence	>600 µM
CC1(C)O[C@H]2OC([C@H](CCO)NCCCCCCCCN[C@@H](CCO)C3O[C@@H]4OC(C)(C)O[C@@H]4[C@H]3OCc3ccccc3)[C@H](OCc3ccccc3)[C@H]2O1			MIC		H37Rv			6.25 µg/mL
CCCNc1ccc(C(N)=S)cc1			MIC					425 µM
O=C1c2cc(Cl)ccc2OP(=O)(c2ccccc2)N1c1ccc(Cl)cc1			MIC	7 d	My 331/88			4 µM
CCOC(=O)C[C@H](NCCCCCCCCN[C@@H](CC(=O)OCC)C1O[C@@H]2OC(C)(C)O[C@@H]2[C@H]1OCc1ccccc1)C1O[C@@H]2OC(C)(C)O[C@@H]2[C@H]1OCc1ccccc1			MIC		H37Rv			25 µg/mL
COC(=O)/C=C/C(=O)N1CC(C)N(C(=O)/C=C/C(=O)OC)CC1C		12.5 µg/mL	inhibition		H37Rv		BACTEC	15%
CCCCCCCCO[C@H]1OC(CO[C@H]2O[C@H](COCc3ccccc3)[C@@H](OCc3ccccc3)[C@@H]2OCc2ccccc2)[C@@H](OC)[C@@H]1OC			MIC		H37Ra			>128 µg/mL
O=C(COc1ccc([N+](=O)[O-])cc1)NN1C(=O)c2ccc([N+](=O)[O-])cc2C1=O			MIC bound		H37Rv		resazurin	>6.25 µg/mL
COc1ccc2nc(NC(=O)CSc3nnc(-c4ccc5ncccc5c4)o3)sc2c1			MIC		H37Rv		agar	6.25 µg/mL
CCOc1ccc(NC(=O)C(=O)CC(=O)c2c(C)n([O-])c3ccccc3[n+]2=O)cc1		6.25 µg/mL	inhibition		H37Rv		resazurin	35%
NC(=S)c1ccc(Nc2ccccc2)cc1			MIC					150 µM
CSc1nc([N+](=O)[O-])c2cnccn12		6.25 µg/mL	inhibition		H37Rv		resazurin	8%
CCCCCCCCO[C@@H]1O[C@@H]([C@H](COCc2ccccc2)O[C@H]2O[C@H](COCc3ccccc3)[C@@H](OCc3ccccc3)[C@@H]2OCc2ccccc2)[C@H](OCc2ccccc2)[C@H]1OCc1ccccc1			MIC		H37Ra			>128 µg/mL

A second listing of 8 rows from above:

smiles,cell line,tested at,read-out,conditions,strain,changes,method,value
CC1(C)CC(=O)c2c(oc3cc4c5c(oc4cc23)CC(C)(C)CC5=O)C1,,12.5 µg/mL,inhibition,,H37Rv,,BACTEC,4%
N#Cc1ccc2nc(NC(=O)CSc3nnc(-c4ccc5ncccc5c4)o3)sc2c1,,,MIC,,H37Rv,,agar,200 µg/mL
CC1(C)C[C@H]2[C@@H](C1)[C@@H](C(CCO)NCCCCCCCCCCNC(CCO)[C@H]1O[C@@H]3CC(C)(C)C[C@@H]3[C@H]3CC(C)(C)C[C@H]31)O[C@@H]1CC(C)(C)C[C@H]21,,,MIC,,H37Rv,,,>25 µg/mL
CNC(=S)Nc1ccc(S(C)(=O)=O)cc1,,,MIC,,H37Rv,,,>10 µg/mL
Nc1c(C(=O)Nc2ccccc2)[n+]([O-])c2ccccc2[n+]1[O-],,,MIC,,INH-r,,,12.5 µg/mL
CCCCCCCCO[C@@H]1O[C@@H]([C@H](COCc2ccccc2)O[C@H]2O[C@H](COCc3ccccc3)[C@@H](OCc3ccccc3)[C@@H]2OCc2ccccc2)[C@H](OCc2ccccc2)[C@H]1OCc1ccccc1,,,MIC,,H37Ra,,,>128 µg/mL
NC(=S)c1ccc(N)cc1,,,MIC,,,,,425 µM
Cl.Cl.Cl.FC(F)(F)c1ccc2c(c1)N(CCCN1CCN(CCN3CCOCC3)CC1)c1ccccc1S2,,,MIC bound,,H37Rv,,BACTEC,≤12.5 µg/mL